Results of unrelated studies side by side (data: NIAID ChemDB).

Shared fields: enzyme or target tests; species: HIV-1; target: Integrase; endpoint: IC50

ICn is the concentration giving n% inhibition. a–b is a range or a potency band. Blank or dashed fields: not listed here. Rows are shuffled and stem from different studies.

compound,strain or isolate,changes,method,value
CCOC(=O)C(C(=O)OCC)c1cn(Cc2cc(F)ccc2F)c2ccc(F)cc12,,Y143R,strand transfer / fluorescence,>25 µM
N#C/C=C1/c2cc(S)cc([N+](=O)[O-])c2-c2c1cc(S(=O)(=O)NCc1ccccc1)cc2[N+](=O)[O-],,,ELISA / strand transfer,0.14 µM
COc1ccc(/C=C/C(=O)OC[C@H]2O[C@@H](OCCc3ccc(O)c(OC)c3)[C@H](O)[C@@H](O[C@@H]3O[C@@H](C)[C@H](O)[C@@H](O)[C@H]3O)[C@@H]2O)cc1O,,,3′ processing,>100 µM
O=C(Nc1ccccc1)c1c(O)n(O)c(=O)c2cc([N+](=O)[O-])ccc12,,,strand transfer,0.03 µM
CCC1CN(C(=O)OC)Cc2ccc([C@@H]3CC3c3ccc4cc(C(=N)N)ccc4c3)cc21,,,strand transfer,28 µM
CC(O)C(NCNC(=O)C1=C(O)C2(O)C(=O)C3=C(O)c4c(O)cccc4C(C)(O)C3CC2C(N(C)C)C1=O)C(=O)O,RF,,3′ processing,1.3 µM
N=C(N)c1ccc2cc(C#Cc3ccc(C(O)CO)cc3)ccc2c1,,,strand transfer,7.4 µM
CN(C)C1C(=O)C(C(=O)NCNC(CCS(C)=O)C(=O)[O-])=C(O)C2(O)C(=O)C3=C(O)c4c(O)cccc4C(C)(O)C3CC12.[Na+],RF,,3′ processing,1.2 µM
O=C(Cc1ccccc1)Nc1ccc2c(c1)C(=O)N(O)C(=O)C2C(=O)NCc1ccc(F)cc1,,,strand transfer,0.27 µM
N=C(N)c1ccc2cc(C#Cc3ccccn3)ccc2c1,,,strand transfer,300 µM
Cc1cn([C@H]2C[C@@H]3OP(=O)(O)OC[C@H]4O[C@@H](n5cnc6c(=O)[nH]c(N)nc65)C[C@@H]4OP(=O)(O)OC[C@H]3O2)c(=O)[nH]c1=O,,,strand transfer,>1000 µM
O=c1ccc(-c2ccsc2)c(O)c(O)c1O,,,strand transfer,2.6 µM
CCOC(=O)C(C(=O)OCC)c1cn(S(=O)(=O)c2ccc(C)cc2)c2ccc(NC(=O)c3cccc(C)c3O)cc12,,,strand transfer / fluorescence,20.3 µM
C[C@@H]1O[C@@H](O[C@@H]2[C@@H](O)[C@H](OCCc3ccc(O)c(O)c3)O[C@H](COC(=O)/C=C/c3ccc(O)c(O)c3)[C@H]2O)[C@H](O)[C@H](O)[C@H]1O,,,3′ processing,13.7 µM
COc1ccccc(-c2cncnc2)c1=O,,,strand transfer,>1000 µM
O=C(NCc1ccc(F)cc1)c1nc(N2CCCCS2(=O)=O)c2cccnc2c1O,,,3′ processing,0.085 µM
Cc1cc(Cc2cc(C)c(O)c(C(=O)O)c2)cc(C(=O)O)c1O,,,strand transfer,0.9–1.1 µM
CC(C)C[C@H]1OC(=O)[C@H](C(C)C)N(C)C(=O)[C@@H](CC(C)C)OC(=O)[C@H](C(C)C)N(C)C(=O)[C@@H](C(C)C)OC(=O)[C@H](C(C)C)N(C)C1=O,,,3′ processing,10.6 µM
Cc1ccc(C(=O)Nc2ccc3c(c2)c(C(C(=O)O)C(=O)O)cn3S(=O)(=O)c2ccc(C)cc2)cc1,,,strand transfer / fluorescence,>25 µM
COC(=O)[C@@H](Cc1ccc(O)c(O)c1)OC(=O)/C=C/c1ccc(O)c(O)c1/C=C/c1ccc(O)c(O)c1,,,ELISA,7.58 µg/mL
O=C(NC1CCCC1)C1C(=O)N(O)C(=O)c2ccccc21,,,strand transfer,2.86 µM
O=C(/C=C/c1ccc(O)c(O)c1)O[C@H]1[C@H](O)C[C@](O)(C(=O)O)C[C@H]1OC(=O)/C=C/c1ccc(O)c(O)c1,,,strand transfer,40.5–43.9 µM
COc1cccc2c1C(=O)c1c(O)c3c(c(O)c1C2=O)C[C@@](O)(C(=O)CO)C[C@@H]3O[C@H]1C[C@H](N(C)C)[C@H](O)[C@H](C)O1,RF,,strand transfer,4.1 µM
CCOP(=O)(CCCNC(=O)c1c(O)c2ncc(Cc3ccc(F)cc3)cc2n(C)c1=O)OCC,,,strand transfer,<0.1 µM
CCOC(=O)[C@@H](Cc1ccc(O)c(O)c1)OC(=O)/C=C/c1ccc(O)c(O)c1/C=C/c1ccc(O)c(O)c1,,,ELISA,14.54 µg/mL
CC1(C)OC(=O)/C(=C/C(=O)c2cn(Cc3cc(F)ccc3F)c3ccc(Br)cc23)O1,,G140S,strand transfer / fluorescence,9.4 µM
CCC(C)C[C@H]1OC(=O)[C@H](C(C)C)N(C)C(=O)[C@@H](CC(C)C)OC(=O)[C@H](C(C)C)N(C)C(=O)[C@@H](C(C)C)OC(=O)[C@H](C(C)C)N(C)C1=O,,,3′ processing,11.8 µM
Cc1ccc(S(=O)(=O)n2cc(C(C(=O)O)C(=O)O)c3cc(NC(=O)c4cccc(C)c4O)ccc32)cc1,,G140S,strand transfer / fluorescence,23.8 µM
Cc1cn([C@H]2C[C@H](N=[N+]=[N-])[C@@H](COP(=O)(O)O)O2)c(=O)[nH]c1=O,,,strand transfer,140 µM
CN1CCc2ccc([C@@H]3CC3c3ccc4cc(C(=N)N)ccc4c3)cc2C1C1CCCCCC1,,,strand transfer,54 µM
CN1C(=O)C(c2cc(Cl)c(O)c(Cl)c2)NC(=O)[C@@H]2NC(=O)C(c3cc(Cl)c(O)c(Cl)c3)NC(=O)[C@H](NC(=O)C(=O)c3cc(Cl)c(O)c(Cl)c3)Cc3c[nH]c4cc(ccc34)-c3cc2cc(c3O)Oc2ccc(cc2)CC1C(=O)NC(C(=O)O)c1ccc(O)cc1,,,3′ processing,0.2 µM
CNS(=O)(=O)OC1C2OC([C@@H](C)C(C)C)C[C@@H](C)[C@@H]2[C@@]2(C)CC[C@H]3[C@@H]([C@@H](O)[C@@H](O)[C@H]4[C@@H](O)[C@H](OS(=O)(=O)O)CC[C@@]43C)[C@H]12,,,,50 µg/mL
CCOP(=O)(CCNC(=O)c1c(O)c2ncc(Cc3ccc(F)cc3)cc2n(CC(=O)N(C)C)c1=O)OCC,,,strand transfer,<0.1 µM
O=C(O)c1c[nH]c2c(ccc3[nH]cc(C(=O)O)c(=O)c32)c1=O,,,strand transfer,43–51 µM
CC(O)C(=O)C[C@@H]1O[C@H](COC(=O)c2ccc(O)c(OC(=O)c3ccc(O)c(OC(=O)C4=CC(=O)C(=O)C=C4)c3)c2)[C@@H](OC(=O)c2ccc(O)c(OC(=O)c3ccc(O)c(OC(=O)C4=CC(=O)C(=O)C(O)=C4)c3)c2)[C@H](OC(=O)c2ccc(O)c(OC(=O)C3=CC(=O)C(=O)C(OC(=O)c4ccc(O)c(OC(=O)C5=CC(=O)C(=O)C(O)=C5)c4)=C3)c2)[C@H]1OC(=O)c1ccc(O)c(OC(=O)c2ccc(O)c(OC(=O)C3=CC(=O)C(=O)C(O)=C3)c2)c1,,,3′ processing,6 µM
O=C(O)c1c[nH]c2c([N+](=O)[O-])cccc2c1=O,,,strand transfer,16.7–23.4 µM
COc1ccc(OC)c2c1c(/C(O)=C/C(=O)C(=O)O)cn2Cc1ccc(F)cc1,,,strand transfer,0.03 µM
N=C(N)c1ccc2cc(C(=O)Nc3cccc(OC4CCCC4)c3)cc(Br)c2c1,,,strand transfer,15.6 µM
O=C1C(=O)N(CC2CC2)C(c2ccccc2)/C1=C(/O)c1ccccc1,,,3′ processing,>100 µM
O=C(NCc1ccc(F)cc1)c1nc(N2CCCCS2(=O)=O)c2cccnc2c1O,,,,0.01 µM
[N-]=[N+]=Nc1cn([C@H]2C[C@H](N=[N+]=[N-])[C@@H](COP(=O)(O)O)O2)c(=O)[nH]c1=O,,,3′ processing,70 µM
CC(=O)NCCSS(=O)(=O)CCCCS(=O)(=O)SCCNC(C)=O,,,strand transfer,>200 µM
CN(C)[C@@H]1C(=O)C(C(N)=O)=C(O)[C@@]2(O)C(=O)C3=C(O)c4c(O)cccc4[C@@](C)(O)[C@H]3C[C@@H]12,RF,,strand transfer,188 µM
CCOC(=O)C(C(=O)OCC)c1cn(S(=O)(=O)c2ccc(C)cc2)c2ccc(NC(=O)c3cccc([N+](=O)[O-])c3)cc12,,Y143R,strand transfer / fluorescence,24.8 µM
Cc1ccnc(C(=O)CC(=O)c2cccc(Cc3ccccc3)c2)c1,,,,0.05 µM
Cn1c(=O)c(C(=O)NCCP(=O)(O)O)c(O)c2ncc(Cc3ccc(F)cc3)cc21,,,strand transfer,<0.1 µM
O=c1ccc(-c2ccc(C(F)(F)F)cc2)c(O)c(O)c1O,,,strand transfer,120 µM
CCOP(=O)(O)CCCNC(=O)c1c(O)c2ncc(Cc3ccc(F)cc3)cc2n(C)c1=O,,,strand transfer,<0.1 µM
N=C(CC(=O)c1cn(Cc2ccc(F)cc2)cc1-c1ccccc1)C(=O)O,,,3′ processing,8.8 µM
O=C(O)C(=O)/C=C(\O)c1c[nH]c(=O)n(Cc2ccccc2)c1=O,,,3′ processing,10 µM
Cn1c(=O)c(C(=O)NCCCCP(=O)(O)O)c(O)c2ncc(Cc3ccc(F)cc3)cc21,,,strand transfer,<0.1 µM

A second listing of 4 rows from above:

compound,strain or isolate,changes,method,value
N=C(N)c1ccc2cc(C#Cc3ccccn3)ccc2c1,,,strand transfer,300 µM
COc1cccc2c1C(=O)c1c(O)c3c(c(O)c1C2=O)C[C@@](O)(C(=O)CO)C[C@@H]3O[C@H]1C[C@H](N(C)C)[C@H](O)[C@H](C)O1,RF,,strand transfer,4.1 µM
Cc1ccc(C(=O)Nc2ccc3c(c2)c(C(C(=O)O)C(=O)O)cn3S(=O)(=O)c2ccc(C)cc2)cc1,,,strand transfer / fluorescence,>25 µM
Cn1c(=O)c(C(=O)NCCP(=O)(O)O)c(O)c2ncc(Cc3ccc(F)cc3)cc21,,,strand transfer,<0.1 µM